What was measured:
[1] = design: species or system chicken; details: 20 ppm Cl2 equivalent, 1 = better tasting sample
[2] = Skin pigmentation, Minolta Color Meter (Example 6); design: species or system chicken; details: for Mean Pre-Chill Minolta Value B / Mean Pre-Chill Minolta Value L / Mean Pre-Chill Minolta Value a: before chilling; for Mean Post-Chill Minolta Value L / Mean Post-Chill Minolta Value a / Mean Post-Chill Minolta Value b: after chilling

## CC1(C)C(=O)N(Br)C(=O)N1Br [DBDMH, 1,3-dibromo-5,5-dimethylhydantoin]
[1]; mean of 10 panelists
  Tasting Ranking, Breast Meat, Mean: 1.6 a
  Tasting Ranking, Thigh Meat, Mean: 1.4 a
[1]; panelist S1
  Tasting Ranking, Breast Meat, S1: 1
  Tasting Ranking, Thigh Meat, S1: 2
[1]; panelist S2
  Tasting Ranking, Breast Meat, S2: 2
  Tasting Ranking, Thigh Meat, S2: 1
[1]; panelist S3
  Tasting Ranking, Breast Meat, S3: 2
  Tasting Ranking, Thigh Meat, S3: 1
[1]; panelist S4
  Tasting Ranking, Breast Meat, S4: 2
  Tasting Ranking, Thigh Meat, S4: 2
[1]; panelist S5
  Tasting Ranking, Breast Meat, S5: 1
  Tasting Ranking, Thigh Meat, S5: 2
[1]; panelist S6
  Tasting Ranking, Breast Meat, S6: 2
  Tasting Ranking, Thigh Meat, S6: 1
[1]; panelist S7
  Tasting Ranking, Breast Meat, S7: 2
  Tasting Ranking, Thigh Meat, S7: 1
[1]; panelist S8
  Tasting Ranking, Breast Meat, S8: 1
  Tasting Ranking, Thigh Meat, S8: 1
[1]; panelist S10
  Tasting Ranking, Breast Meat, S10: 1
  Tasting Ranking, Thigh Meat, S10: 1
[2]; 5 ppm group
  Mean Pre-Chill Minolta Value B: 13.61 a
  Mean Pre-Chill Minolta Value L: 58.80 a
  Mean Pre-Chill Minolta Value a: 4.67 a
[2]; 5 ppm
  Mean Post-Chill Minolta Value L: 52.68 a
  Mean Post-Chill Minolta Value a: 5.42 a
  Mean Post-Chill Minolta Value b: 15.64 a
[2]; 10 ppm group
  Mean Pre-Chill Minolta Value B: 13.64 a
  Mean Pre-Chill Minolta Value L: 59.97 a
  Mean Pre-Chill Minolta Value a: 4.31 a
[2]; 10 ppm
  Mean Post-Chill Minolta Value L: 53.19 a
  Mean Post-Chill Minolta Value a: 5.69 a
  Mean Post-Chill Minolta Value b: 15.75 a
[2]; 15 ppm group
  Mean Pre-Chill Minolta Value B: 13.81 a
  Mean Pre-Chill Minolta Value L: 58.43 a
  Mean Pre-Chill Minolta Value a: 4.84 a
[2]; 15 ppm
  Mean Post-Chill Minolta Value L: 54.21 a
  Mean Post-Chill Minolta Value a: 5.55 a
  Mean Post-Chill Minolta Value b: 15.64 a
[2]; 20 ppm group
  Mean Pre-Chill Minolta Value B: 13.67 a
  Mean Pre-Chill Minolta Value a: 4.99 a
[2]; 20 ppm
  Mean Post-Chill Minolta Value a: 5.49 a
  Mean Post-Chill Minolta Value b: 15.80 a
[2]; 25 ppm group
  Mean Pre-Chill Minolta Value B: 13.50 a
  Mean Pre-Chill Minolta Value L: 58.97 a
  Mean Pre-Chill Minolta Value a: 4.68 a
[2]; 25 ppm
  Mean Post-Chill Minolta Value L: 54.25 a
  Mean Post-Chill Minolta Value a: 5.63 a
  Mean Post-Chill Minolta Value b: 15.76 a

— patent publication US7767240B2, “Microbiological control in poultry processing” (priority 2001, dated 2010)
